Pooled drug test results. Numbers come from NIAID ChemDB, via PubChem.

All rows: growth or infection tests; organism: Mycobacterium avium intracellulare

MIC50, MIC90 and the like: level of inhibition, or share of isolates inhibited. An empty or dashed field is not shown. ECn is the concentration giving n% inhibition of infection, replication or growth. Lines come from different laboratories, so protocols vary.

smiles	strain or isolate	measure	value
C/C=C/c1ccc(OC(=O)/C(C)=C/C)cc1	ATCC 19709	MBC	>20 µg/mL
C[C@@H]1CN(c2c(F)c(N)c3c(=O)c(C(=O)O)cn(C4CC4)c3c2F)C[C@H](C)N1	N-475 (HIV-)	MIC	0.25 µg/mL
CCCCCCCCC(=O)O[C@H]1[C@H](C)OC(O[C@H]2[C@H](C)[C@@H](O[C@@H]3O[C@H](C)C[C@H](N(C)C)[C@H]3O)C(C)(O)C[C@@H](C)/C(=N\OCCCOc3ccccc3)[C@H](C)[C@@H](O)[C@](C)(O)[C@@H](CC)OC(=O)[C@@H]2C)C[C@@]1(C)OC	20066 (clarithromycin-susceptible)	MIC	0.39 µg/mL
CC1COc2c(N3CCN(C)CC3)c(F)cc3c(=O)c(C(=O)O)cn1c23	31 strains	MIC50	25 µg/mL
CO[C@H]1/C=C/O[C@@]2(C)Oc3c(C)c(O)c4c(=O)c(c5oc6cc(N7CCN(CC(C)C)CC7)cc(=O)c6nc5c4c3=C2O)NC(=O)/C(C)=C\C=C\[C@H](C)[C@H](O)[C@@H](C)[C@@H](O)[C@@H](C)[C@H](OC(C)=O)[C@@H]1C	N-486 (HIV-)	MIC	≤0.0125 µg/mL
CC[C@H]1OC(=O)[C@H](C)[C@@H](O[C@H]2C[C@@](C)(OC)[C@@H](OC(C)=O)[C@H](C)O2)[C@H](C)[C@@H](O[C@@H]2O[C@H](C)C[C@H](N(C)C)[C@H]2O)C(C)(O)C[C@@H](C)/C(=N\OCCCCc2ccccc2)[C@H](C)[C@@H](O)[C@]1(C)O	20066 (clarithromycin-susceptible)	MIC	1.56 µg/mL
C/C=C(/C)C(=O)Oc1ccc(OC)cc1C1OC1C	ATCC 19709	EC50	2.5 µg/mL
CN1CCN(c2c(F)cc3c(=O)c(C(=O)O)cn(CCF)c3c2F)CC1	-	MIC90	50 µg/mL
COc1cc(NC(C)CCCN)c2nc(C(C)(C)C)cc(C)c2c1Oc1cccc(C(F)(F)F)c1	-	MBC	5 µg/mL
CO[C@H]1/C=C/O[C@@]2(C)Oc3c(C)c(O)c4c(O)c(c(/C=N/N5CCN(C6CCCC6)CC5)c(O)c4c3C2=O)NC(=O)/C(C)=C\C=C\[C@H](C)[C@H](O)[C@@H](C)[C@@H](O)[C@@H](C)[C@H](OC(C)=O)[C@@H]1C	119	MIC	1 µg/mL
COc1c(O)c2c(=O)cc(OC)c3c4c(OC)cc(=O)c5c(O)c(OC)c6c(c(c1CC(C)(O)C6C(C)=O)c23)c54	-	MBC	>100 µg/mL
CC[C@H]1OC(=O)[C@H](C)[C@@H](OC2C[C@@](C)(OC)[C@@H](O)[C@H](C)O2)[C@H](C)[C@@H](O[C@@H]2O[C@H](C)C[C@H](N(C)C)[C@H]2O)C(C)(O)C[C@@H](C)/C(=N\OCCc2cccs2)[C@H](C)[C@@H](O)[C@]1(C)O	20066 (clarithromycin-susceptible)	MIC	3.13 µg/mL
CC1COc2c(N3CCN(C)CC3)c(F)cc3c(=O)c(C(=O)O)cn1c23	31 strains	MIC90	100 µg/mL
CC[C@H]1OC(=O)[C@H](C)[C@@H](OC2C[C@@](C)(OC)[C@@H](OC(=O)c3ccccc3)[C@H](C)O2)[C@H](C)[C@@H](O[C@@H]2O[C@H](C)C[C@H](N(C)C)[C@H]2O)C(C)(O)C[C@@H](C)/C(=N\OCCCOc2ccccc2)[C@H](C)[C@@H](O)[C@]1(C)O	20066 (clarithromycin-susceptible)	MIC	1.56 µg/mL
CC1COc2c(N3CCN(C)CC3)c(F)cc3c(=O)c(C(=O)O)cn1c23	N-260	MIC50	50 µg/mL
CN[C@@H]1[C@H](O[C@H]2[C@H](O[C@H]3[C@H](O)[C@@H](O)[C@H](N=C(N)N)[C@@H](O)[C@@H]3N=C(N)N)O[C@@H](C)[C@]2(O)C=O)O[C@@H](CO)[C@H](O)[C@H]1O	N-919 (HIV-)	MIC	0.25 µg/mL
CC[C@H]1OC(=O)[C@H](C)[C@@H](OC2C[C@@](C)(OC)[C@@H](OC(=O)C(C)C)[C@H](C)O2)[C@H](C)[C@@H](O[C@@H]2O[C@H](C)C[C@H](N(C)C)[C@H]2O)C(C)(O)C[C@@H](C)/C(=N\OCCCOc2ccccc2)[C@H](C)[C@@H](O)[C@]1(C)O	20066 (clarithromycin-susceptible)	MIC	1.56 µg/mL
CO[C@H]1/C=C/O[C@@]2(C)Oc3c(C)c(O)c4c(O)c(c5c(c4c3C2=O)NC2(CCN(CC(C)C)CC2)N=5)=NC(=O)/C(C)=C\C=C\[C@H](C)[C@H](O)[C@@H](C)[C@@H](O)[C@@H](C)[C@H](OC(C)=O)[C@@H]1C	N-499 (HIV-)	MIC	0.0313 µg/mL
CC[C@H]1OC(=O)[C@H](C)[C@@H](O[C@H]2C[C@@](C)(OC)[C@@H](OC(C)=O)[C@H](C)O2)[C@H](C)[C@@H](O[C@@H]2O[C@H](C)C[C@H](N(C)C)[C@H]2OC(=O)NN2CCCCC2)C(C)(O)C[C@@H](C)/C(=N\OCCCC2CCCCC2)[C@H](C)[C@@H](O)[C@]1(C)O	20066 (clarithromycin-susceptible)	MIC	0.78 µg/mL

Again, the opening 2 rows:

{"smiles": "C/C=C/c1ccc(OC(=O)/C(C)=C/C)cc1", "strain or isolate": "ATCC 19709", "measure": "MBC", "value": ">20 µg/mL"}
{"smiles": "C[C@@H]1CN(c2c(F)c(N)c3c(=O)c(C(=O)O)cn(C4CC4)c3c2F)C[C@H](C)N1", "strain or isolate": "N-475 (HIV-)", "measure": "MIC", "value": "0.25 µg/mL"}